Assay results published in PMC12194669, “The Conopeptide αD-FrXXA, an Inhibitor of Voltage-Gated Potassium Channels” (2025).
Where “and” joins values, the source holds several entries; their conditions need not be identical. Identical values can stand only once.

By UniProt entry, the sequences of proteins in these tests, tags left out.
UniProt P22001, whole entry, looked up: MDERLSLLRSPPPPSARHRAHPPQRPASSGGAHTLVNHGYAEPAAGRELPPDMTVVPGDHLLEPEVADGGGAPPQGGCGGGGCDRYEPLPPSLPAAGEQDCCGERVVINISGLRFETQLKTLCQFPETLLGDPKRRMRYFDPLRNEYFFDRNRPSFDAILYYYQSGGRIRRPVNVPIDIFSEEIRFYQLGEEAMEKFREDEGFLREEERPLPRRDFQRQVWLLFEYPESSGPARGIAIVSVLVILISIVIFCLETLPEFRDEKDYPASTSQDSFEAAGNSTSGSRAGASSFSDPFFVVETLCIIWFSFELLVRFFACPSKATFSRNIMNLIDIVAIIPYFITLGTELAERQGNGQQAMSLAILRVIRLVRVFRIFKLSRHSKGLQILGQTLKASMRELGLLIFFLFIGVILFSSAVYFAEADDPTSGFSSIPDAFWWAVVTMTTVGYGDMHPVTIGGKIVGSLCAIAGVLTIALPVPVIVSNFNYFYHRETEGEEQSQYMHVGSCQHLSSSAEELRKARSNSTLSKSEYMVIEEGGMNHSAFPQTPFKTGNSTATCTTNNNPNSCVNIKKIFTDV
UniProt P17658, whole entry, looked up: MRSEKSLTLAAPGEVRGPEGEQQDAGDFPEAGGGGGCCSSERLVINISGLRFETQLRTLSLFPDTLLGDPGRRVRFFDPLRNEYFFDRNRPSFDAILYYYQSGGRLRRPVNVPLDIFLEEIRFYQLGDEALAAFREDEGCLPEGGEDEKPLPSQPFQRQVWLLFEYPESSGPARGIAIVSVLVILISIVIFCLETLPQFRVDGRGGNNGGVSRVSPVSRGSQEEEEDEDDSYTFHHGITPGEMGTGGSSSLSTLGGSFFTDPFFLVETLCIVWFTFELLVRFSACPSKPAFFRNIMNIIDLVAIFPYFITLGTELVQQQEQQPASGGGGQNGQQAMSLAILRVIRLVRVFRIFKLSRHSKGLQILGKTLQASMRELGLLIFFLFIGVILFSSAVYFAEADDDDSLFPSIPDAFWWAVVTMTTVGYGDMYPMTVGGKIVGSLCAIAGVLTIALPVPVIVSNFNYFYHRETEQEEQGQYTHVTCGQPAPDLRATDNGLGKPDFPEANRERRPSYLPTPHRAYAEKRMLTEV

Experiments:
hα3β2 nAChR = details: read-out: IC50 on hα3β2 nAChR; acetylcholine-induced response; cited from earlier work
hα4β2 nAChR = details: read-out: IC50 on hα4β2 nAChR; acetylcholine-induced response; cited from earlier work
human Kv1.3 = human Kv1.3 (Homo sapiens, UniProt P22001); details: 15 μM; washings longer than sixty minutes
hα7 nAChR = details: read-out: IC50 on hα7 nAChR; acetylcholine-induced response; cited from earlier work
human Kv11.1 = details: 15 μM; first five minutes of washing
[1] = tested on: mouse adult muscle nAChR (m(α1)2β1δε); details: read-out: IC50 on mouse adult muscle nAChR (m(α1)2β1δε); acetylcholine-induced response; cited from earlier work
human Kv1.6 = human Kv1.6 (Homo sapiens, UniProt P17658); details: 15 μM; washings longer than sixty minutes
[2] = tested on: mouse fetal muscle nAChR (m(α1)2β1δγ); details: read-out: IC50 on mouse fetal muscle nAChR (m(α1)2β1δγ); acetylcholine-induced response; cited from earlier work
[3] = 15 μM αD-FrXXA, TEVC, pulses to +10 mV from −80 mV, mean ± S.E.M., n ≥ 3
[4] = 15 μM, first five minutes of washing

For `CC[C@H](C)[C@H](NC(=O)[C@H](CCCNC(=N)N)NC(=O)[C@H](C)NC(=O)[C@@H](N)CCC(=O)O)C(=O)N[C@H](C(=O)N[C@H]1CSSC[C@@H](C(=O)N[C@H]2CSSC[C@@H]3NC(=O)[C@H](Cc4ccc(O)cc4)NC(=O)[C@H](CC(N)=O)NC(=O)CNC(=O)[C@H](CSSC[C@@H]4NC(=O)[C@H](CCCNC(=N)N)NC(=O)[C@@H]5CSSC[C@@H](C(=O)O)NC(=O)[C@H](CO)NC(=O)[C@H](CSSC[C@H](NC3=O)C(=O)N[C@@H](Cc3ccc(O)cc3)C(=O)N[C@@H](CCCCN)C(=O)N[C@@H](Cc3c[nH]cn3)C(=O)NCC(=O)N5)NC(=O)CNC(=O)[C@H](Cc3c[nH]cn3)NC(=O)CNC(=O)[C@H](CCCNC(=N)N)NC(=O)[C@H](Cc3c[nH]c5ccccc35)NC(=O)[C@H](CO)NC(=O)[C@H](Cc3c[nH]cn3)NC(=O)[C@H](Cc3ccc(O)cc3)NC(=O)[C@H](C(C)C)NC4=O)NC(=O)[C@H](CCSC)NC(=O)[C@H](CCC(N)=O)NC(=O)[C@H]([C@@H](C)O)NC(=O)[C@H](CC(C)C)NC2=O)NC(=O)[C@H](CCCNC(=N)N)NC(=O)CNC(=O)[C@H](Cc2c[nH]c3ccccc23)NC(=O)[C@H](CCCCN)NC(=O)[C@H](CO)NC(=O)[C@H](CCCNC(=N)N)NC(=O)CNC(=O)[C@H](CCCNC(=N)N)NC(=O)[C@@H]2CCCN2C(=O)[C@H](CCC(N)=O)NC(=O)[C@@H](NC(=O)[C@@H](NC(=O)[C@@H](NC(=O)[C@H](CCCNC(=N)N)NC(=O)[C@H](C)NC(=O)[C@@H](N)CCC(=O)O)[C@@H](C)CC)[C@@H](C)O)CSSC[C@@H](C(=O)N[C@H]2CSSC[C@@H]3NC(=O)[C@H](Cc4ccc(O)cc4)NC(=O)[C@H](CC(N)=O)NC(=O)CNC(=O)[C@H](CSSC[C@@H]4NC(=O)[C@H](CCCNC(=N)N)NC(=O)[C@@H]5CSSC[C@@H](C(=O)O)NC(=O)[C@H](CO)NC(=O)[C@H](CSSC[C@H](NC3=O)C(=O)N[C@@H](Cc3ccc(O)cc3)C(=O)N[C@@H](CCCCN)C(=O)N[C@@H](Cc3c[nH]cn3)C(=O)NCC(=O)N5)NC(=O)CNC(=O)[C@H](Cc3c[nH]cn3)NC(=O)CNC(=O)[C@H](CCCNC(=N)N)NC(=O)[C@H](Cc3c[nH]c5ccccc35)NC(=O)[C@H](CO)NC(=O)[C@H](Cc3c[nH]cn3)NC(=O)[C@H](Cc3ccc(O)cc3)NC(=O)[C@H](C(C)C)NC4=O)NC(=O)[C@H](CCSC)NC(=O)[C@H](CCC(N)=O)NC(=O)[C@H]([C@@H](C)O)NC(=O)[C@H](CC(C)C)NC2=O)NC(=O)[C@H](CCCNC(=N)N)NC(=O)CNC(=O)[C@H](Cc2c[nH]c3ccccc23)NC(=O)[C@H](CCCCN)NC(=O)[C@H](CO)NC(=O)[C@H](CCCNC(=N)N)NC(=O)CNC(=O)[C@H](CCCNC(=N)N)NC(=O)[C@@H]2CCCN2C(=O)[C@H](CCC(N)=O)NC1=O)[C@@H](C)O`, the “Current Inhibition (%) Kv1.4” value (human Kv1.4; [3]) is given as 50.62 ± 8.00% and ≈ 50%, the “Reversibility of the effect on washing, Kv1.4” value (human Kv1.4; 15 μM, washings longer than sixty minutes) is given as “irreversible” and the IC50 (hα3β2 nAChR) is given as 282 nM. For the same molecule, the IC50 (hα4β2 nAChR) was 697 nM, the “Current Inhibition (%) Kv10.1” value (human Kv10.1; [3]) was 17.88 ± 1.28% and < 20% and the “Reversibility of the effect on washing, Kv10.1” value (human Kv10.1; [4]) was “completely reversible”. For the same molecule, the “Reversibility of the effect on washing, Kv1.3” value (human Kv1.3) was “irreversible”, the “Current Inhibition (%) Kv1.5” value (human Kv1.5; [3]) was 56.23 ± 3.68% and ≈ 50% and the “Reversibility of the effect on washing, Kv1.5” value (human Kv1.5; [4]) was “completely reversible”. The IC50 (hα7 nAChR) was 125 nM, the “Reversibility of the effect on washing, Kv11.1” value (human Kv11.1) was “completely reversible” and the IC50 [1] was 351 nM. For the same molecule, the “Reversibility of the effect on washing, Kv1.6” value (human Kv1.6) was “irreversible” and the IC50 [2] was 447 nM.
